The test system of assay [1] is SQR (SDHC / altC) of IPO323 pTet::SDHC3 transformant, induced. Put plainly: Succinate-quinone (SQR) SDHI sensitivity assay on purified mitochondria, IPO323 pTet::SDHC3 induced. In kind it is biochemical, Zymoseptoria tritici. To be noted: IC50 ratio compared to IPO323 values. On the procedure:
(§1) Succinate-ubiquinone oxidoreductase (SQR) inhibition assays were performed on mitochondrial extracts from a panel of strains that were (i) either carrying a unique C-subunit encoding gene (ZtSDHC1, ZtSDHC1_A84I or Zt-SDHC3), or (ii) carrying two C-subunit encoding genes ZtSDHC1 and ZtSDHC3 (Table 1).
(§2) Biomass production, mitochondrial extraction and purification were performed as described in [14]. Succinate: ubiquinone/DCPIP sensitivity tests were performed as described in [14] with minor modification.

Amino acid sequences for entries named in this document (tags omitted). Residues count along the entry.
UniProt A0A1X7RQW2, 36-181: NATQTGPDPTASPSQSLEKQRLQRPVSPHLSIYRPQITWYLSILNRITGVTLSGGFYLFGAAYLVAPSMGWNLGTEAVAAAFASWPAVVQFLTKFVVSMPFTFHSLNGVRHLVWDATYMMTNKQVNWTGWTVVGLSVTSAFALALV
UniProt F9X9V6, 1-193: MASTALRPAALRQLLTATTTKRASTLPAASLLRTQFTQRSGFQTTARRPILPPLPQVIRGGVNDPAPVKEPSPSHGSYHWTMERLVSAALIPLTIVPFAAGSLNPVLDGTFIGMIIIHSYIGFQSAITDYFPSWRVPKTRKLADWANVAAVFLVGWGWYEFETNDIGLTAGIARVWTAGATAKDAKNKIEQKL
UniProt F9XH52, 44-187: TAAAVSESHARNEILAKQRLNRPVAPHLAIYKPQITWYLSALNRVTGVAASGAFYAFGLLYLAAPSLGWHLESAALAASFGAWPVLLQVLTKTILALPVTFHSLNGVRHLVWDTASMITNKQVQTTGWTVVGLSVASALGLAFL
UniProt O42772, 19-297: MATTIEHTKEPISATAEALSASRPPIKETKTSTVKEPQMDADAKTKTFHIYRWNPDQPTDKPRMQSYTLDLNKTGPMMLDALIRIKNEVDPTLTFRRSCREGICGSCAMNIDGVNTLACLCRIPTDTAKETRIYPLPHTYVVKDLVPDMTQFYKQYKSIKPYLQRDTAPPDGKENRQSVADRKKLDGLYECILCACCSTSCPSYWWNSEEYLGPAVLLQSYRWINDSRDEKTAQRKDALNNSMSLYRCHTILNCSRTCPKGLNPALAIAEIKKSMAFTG
UniProt O42772, 20-297: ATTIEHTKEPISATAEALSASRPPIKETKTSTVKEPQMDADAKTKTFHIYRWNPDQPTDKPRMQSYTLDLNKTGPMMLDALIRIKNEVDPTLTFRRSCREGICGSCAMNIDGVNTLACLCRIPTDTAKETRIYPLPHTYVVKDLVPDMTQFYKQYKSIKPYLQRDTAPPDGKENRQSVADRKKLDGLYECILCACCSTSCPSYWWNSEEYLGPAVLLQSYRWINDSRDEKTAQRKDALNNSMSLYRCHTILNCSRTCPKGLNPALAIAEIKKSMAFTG

Assay [2] addresses SQR of 06STD024 (SDHC / altC) mitochondria (Zymoseptoria tritici, UniProt A0A1X7RQW2+F9X9V6+F9XH52+O42772). Description: Succinate-quinone (SQR) SDHI sensitivity assay on purified mitochondria, 06STD024. In kind it is biochemical. To be noted: IC50 ratio compared to IPO323 values. The method, then: as §1, §2
The target of assay [3] is altC-SQR (altC) of D024 SDHC1 KO mitochondria (Zymoseptoria tritici, UniProt A0A1X7RQW2+F9X9V6+O42772). Put plainly: Succinate-quinone (SQR) SDHI sensitivity assay on purified mitochondria, 06STD024 SDHC1 KO. The format is biochemical. To be noted: IC50 ratio compared to IPO323 values. The method, then:
as §1, §2

Assay [4] concerns the target SQR (SDHC / altC) of IPO323 pTet::SDHC3 transformant, repressed (Zymoseptoria tritici, UniProt A0A1X7RQW2+F9X9V6+F9XH52+O42772). Description: Succinate-quinone (SQR) SDHI sensitivity assay on purified mitochondria, IPO323 pTet::SDHC3 repressed. To be noted: IC50 ratio compared to IPO323 values. In kind it is biochemical. The method, then:
as §1, §2

Assay [5] deals with WT-SQR (SDHC), IPO323 mitochondria (Zymoseptoria tritici, UniProt F9X9V6+F9XH52+O42772). Put plainly: Succinate-quinone (SQR) SDHI sensitivity assay on purified mitochondria, IPO323. In kind it is biochemical. The method, then:
as §1
Biomass production, mitochondrial extraction and purification were performed as described in [14]. Succinate: ubiquinone/DCPIP sensitivity tests were performed as described in [14] with minor modification. The different mitochondrial suspensions were adjusted to similar initial velocity (1 OD595nm hour^-1) and inhibitor concentrations ranged between 0.047nM and 50μM with uniform 4x dilution steps (11 concentrations + DMSO control). Calculated absorbance slopes (OD/min) were used for IC50 calculations using GraphPad Prism 6.07 software non-linear curve fitting against log inhibitor concentrations.

Assay [6] deals with Zymoseptoria tritici field and genetically modified strains. Put plainly: Liquid culture assay for fungicide sensitivity determination. In kind it is cell-based. To be noted: respective to IPO323. On the procedure:
Sensitivity towards commercial fungicides was determined for a set of 99 SHA-SDHI-naïve Z. tritici field isolates sampled in Europe between 2006 and 2009. The EC50 of these isolates was determined in liquid growth assays and the data obtained compared for each possible pair of SDHI fungicides (cross-resistance (XR) plots, Fig 1). […] Comparative succinate-quinone reductase (SQR) enzyme inhibition tests were performed with mitochondria extracted from a panel of SHA-SDHIs tolerant and sensitive isolates.
In order to characterize in more depth the mechanisms driving sensitivity differences across the isolates, a subset of eight isolates carrying the ZtSDHC3 gene was analyzed for their sensitivity to SDHIs, alt-SDHC expression and splicing patterns. Liquid culture growth sensitivity tests were performed to determine EC50s for this set of isolates towards a wide range of commercial and research SDHIs (S5 Table).
Pre-culture of the inoculum and fungicide sensitivity tests were performed following previously described procedures. Different ranges of inhibitor concentrations were used for population monitoring and for the detailed phenotyping of a selected set of individual field isolates and genetically modified strains. For fungicide sensitivity monitoring of European field populations, final inhibitors concentrations were between 100 mg.L^-1 and 0.0001 mg.L^-1 with uniform 10x dilution steps (7 inhibitor concentrations + DMSO control). For refined sensitivity analysis of a smaller panel of isolates final inhibitor concentrations ranged between 0.5 mM and 0.47 nM with uniform 4x dilution factor steps (11 inhibitor concentrations+ DMSO control).

The subject of assay [7] is Zymoseptoria tritici on wheat variety Riband. Put plainly: In planta fungicide dose response. In kind it is in vivo. To be noted: 06STD024 ZtSDHC1 KO vs 06STD024 ZtSDHC3 KO. On the procedure:
The influence of the ZtSDHC3-driven SHA-SDHI resistance for the control of Z. tritici during wheat infection was assessed with a small range of commercial SDHIs (Fig 4C and 4D). In planta SDHIs sensitivity assays were performed with the 06STD024 isolate and its ZtSDHC1 or ZtSDHC3 KO mutants. A control strain (705) devoid of the ZtSDHC3 gene but more aggressive than IPO323 on wheat variety Riband was also included for comparison (Fig 4C and 4D).
Wheat (Triticum aestivum) variety Riband was grown in pots (d = 6.5cm), at a density of 4 plants per pot and treated with the growth regulator CCC (Chlorcholinchlorid; Chlormequat; 5 ml / pot, 0.4% solution) 4 days after sowing. Wheat plantlets were maintained in a climatic room at 18°C, 60% humidity and under a 12h light regime (high intensity). Fungicide applications were performed on 14 days old plantlets for which leaf 2 is the fully expanded target leaf. Fungicide treatments were performed using a custom-made track sprayer adjusted at 200L.ha^-1 (Nozzle: Lechler, orange LU90-01). The fungicides used were Solatenol EC100 (Elatus Plus, benzovindyflupyr), Isopyrazam EC125 (Seguris Flexi or Reflect), Adepidyn EC100 (research formulation of pydiflumetofen). […] In planta EC50 were calculated using the software GraphPad Prism v6.08.

Molecules are shown by their SMILES. A value given as a limit tells only on which side of the number the result lay.

Take `O=C(Nc1ccccc1-c1ccc(Cl)cc1)c1cccnc1Cl` [Boscalid]: the “RF (resistance factor), pTet Induced (SDHC / altC)” value (“RF … pTet Induced (SDHC / altC)” below) in assay [1] turned out to be 2.4.
On the same count and under the same terms, to `CC1=C(C(=O)Nc2ccccc2)SCCO1` [Carboxin] belongs 0.8.
Take `Cn1cc(C(=O)NCCc2ccc(Cl)cc2Cl)c(C(F)F)n1` [Compound 1]: the “RF (resistance factor), 06STD024 (SDHC / altC)” value (“RF … 06STD024 (SDHC / altC)” for short) in assay [2] turned out to be 7.7. Besides, the “RF (resistance factor), D024 SDHC1 KO (altC)” value (from here on “RF … (altC)”) in assay [3] came out at 8.3. For the same compound, in assay [1], the “RF … pTet Induced (SDHC / altC)” value is 4.3. Besides, the “RF (resistance factor), pTet Repressed (SDHC / altC)” value in assay [4] is reported as 1.4.
In the case of `C[C@@H](Cc1ccc(Cl)cc1Cl)NC(=O)c1cn(C)nc1C(F)F` [Compound 2], the “Fold lower IC50 in comparison to compound 1” value in assay [5] (WT-SQR) is on record as 21 fold. The “RF … 06STD024 (SDHC / altC)” value in assay [2] stood at 78.0. Moreover, the “RF … (altC)” value in assay [3] turned out to be 67.1. Also, the “RF … pTet Induced (SDHC / altC)” value in assay [1] came out at 38.3. Further, the “RF (resistance factor), pTet Repressed (SDHC / altC)” value in assay [4] amounted to 2.9.
Consider `CON(C(=O)c1cn(C)nc1C(F)F)[C@@H](C)Cc1ccc(Cl)cc1Cl` [Compound 3], for which the “Fold increased potency compared to the matched pair compound 2” value in assay [5] (IC50 ratio, WT-SQR values of Table 1) is recorded as 7.6 fold. Also, the “RF … 06STD024 (SDHC / altC)” value in assay [2] was 39.5. In addition, the “RF … (altC)” value in assay [3] amounted to 34.0.
Regarding `Cc1cc(OC(C)C)ccc1C(=O)C(C)(C)NC(=O)c1sccc1C` [Isofetamid], in assay [3], the “RF … (altC)” value is listed as over 55000.
Regarding `CC(C)CC(C)c1sccc1NC(=O)c1cn(C)nc1C(F)(F)F` (stereo not shown) [Penthiopyrad], in assay [1], the “RF … pTet Induced (SDHC / altC)” value came out at 1.3.
On to `CON(C(=O)c1cn(C)nc1C(F)F)[C@@H](C)Cc1c(Cl)cc(Cl)cc1Cl` [Pydiflumetofen], for which, in assay [1], the “RF … pTet Induced (SDHC / altC)” value turned out to be 2.8. In addition, the “RF LC (resistance factor in liquid culture)” value was 6.3 in assay [6] (strain 06STD024); 5.5 in assay [6] (strain 07STGB009); 4.4 in assay [6] (strain 09STD041); 1.4 in assay [6] (strain 09STD053); 4.0 in assay [6] (strain 09STF011); 1.8 in assay [6] (strain 09STF037). The “RF LC (resistance factor in liquid culture)” value in assay [6] (strain 09STF112) came out at 4.2; in assay [6] (strain 09STIR20.3) it was 1.8; in assay [6] (strain IPO323) it was 1; in assay [6] (strain IPO94269) it was 1.1. In assay [7], the “In planta EC50 fold higher than 06STD024 ZtSDHC3 KO mutant” value came to 53 fold.
